One may read the CC50 as the concentration giving 50% cytotoxicity.

The test system of the data set is TZM-bl cells. The experiment in a line: Cell toxicity, metabolic XTT test. The format is cell-based, human. As to conditions: read-out: CC50, TZM-bl cell viability. How it is done: The human TZM-bl indicator cell line was obtained from the American Type Culture Collection (Manassas, VA) and maintained at 37°C and 5% CO2 in Dulbecco's modified Eagle's medium (DMEM) containing 10% fetal bovine serum, 50 μg/mLpenicillin, and 50 μg/mL streptomycin. The HIV-1 virus NL(AD8) was titrated as follows: serial 5-fold dilutions of the virus were made in quadruplicate wells in 96-well culture plates, in a total volume of 100 μL of growth medium, for a total of 8 dilution steps. Freshly trypsinized cells (20,000 cells in 100 μL of growth medium containing 75 μg/mL DEAE-dextran) were added to each well, and the plates were incubated at 37°C in a humidified 5% CO2-95% air environment. After 48 h of incubation, the medium was removed and viral infection was quantified using a β-galactosidase (CPRG) assay (Roche). Twenty thousand TZM-bl cells/well were seeded in 96-well plates in complete DMEM supplemented with 30 μg/mL DEAE-dextran (Sigma-Aldrich). […] The TZM-bl indicator cell line has an integrated copy of the β-galactosidase gene under control of the HIV-1 promoter. Β-Galactosidase expression, measured by use of a chlorophenol red/β-D-galactopyranoside (CPRG) assay (Roche) in cell lysates 48 h post-infection was used as a marker of HIV infection. […]
A general note: Tetrazolium dyes change colour on reduction, which living cells bring about.

Regarding Maraviroc [reference compound], the 50% cytotoxic concentration (CC50) was greater than 20 µM.

Source of the values: PMC5877874, “Prenylated phloroglucinols from Hypericum scruglii, an endemic species of Sardinia (Italy), as new dual HIV-1 inhibitors effective on HIV-1 replication” (PLoS ONE, 2018).
